Pooled drug test results. Numbers come from NIAID ChemDB, via PubChem.

Common to all: whole-cell or culture tests; species: Mycobacterium smegmatis

A number after MIC or MFC names an inhibition level or a share of isolates. ECn is the concentration giving n% inhibition of infection, replication or growth. Percent inhibition refers to the dose given; in toxicity tests it is the harm to the cells. Neighbouring rows are from separate reports. a–b is a range or a potency band. An empty or dashed field is not shown.

CCSCCCCCCCCCCCCC#CC(=O)O ; measure: MIC99 ; strain or isolate: mc22389 ; value: 83.8 µM
CCCCNC(=O)c1cc([N+](=O)[O-])cc([N+](=O)[O-])c1 ; read by: visual reading ; measure: MBC ; strain or isolate: mc2155 ; value: 4 µg/mL
C[C@H](NCCN[C@H](C)c1ccccc1)c1ccccc1 ; tested at: 250 µg/mL ; measure: inhibition ; strain or isolate: ATCC 607 ; value: 100%
Cc1[nH]c(-c2ccc(-c3ccccc3F)s2)nc1-c1ccccc1 ; read by: broth dilution / turbidity ; measure: MIC100 ; value: 11–20 µg/mL
COc1ccc(NC(=O)c2cc(Cl)ccc2OC(=O)[C@@H](NC(=O)OCc2ccccc2)C(C)C)cc1 ; read by: broth dilution ; measure: MIC100 ; strain or isolate: ATCC 700084 ; value: 251 µM
COc1c(N2CC[C@@H](CN)C2)c(F)cc2c(=O)n(N)c(=O)n(C3CC3)c12 ; measure: MIC99 ; strain or isolate: G89C mutant ; value: 2.5 µg/mL
CC(C)NCCCNC(C)C ; measure: EC50 ; strain or isolate: ATCC 607 ; value: >1000 µg/mL
C[C@H]1COc2c(N3CCC(n4c(=O)[nH]c5cc(Cl)ccc54)CC3)c(F)c([N+](=O)[O-])c3c(=O)c(C(=O)O)cn1c23 ; read by: agar ; measure: MIC99 ; value: 1.39 µM
Cc1[nH]c(-c2ccc(-c3ccc(C(F)(F)F)cc3)o2)nc1-c1ccc(Cl)cc1 ; read by: broth dilution / turbidity ; measure: MIC100 ; value: 3–10 µg/mL
CCCCCCSCCCCCCCCCCCCC#CC(=O)O ; measure: MIC99 ; strain or isolate: mc22389 ; value: 141 µM
CC(NCCNC(C)C(C)(C)C)C(C)(C)C ; measure: EC50 ; strain or isolate: ATCC 607 ; value: >250 µg/mL
CO[C@H]1/C=C/O[C@@]2(C)Oc3c(C)c(O)c4c(O)c(c5c(c4c3C2=O)N[C@]2(CC[C@@H]3CC[C@H](C2)N3C)N=5)=NC(=O)/C(C)=C\C=C\[C@H](C)[C@H](O)[C@@H](C)[C@@H](O)[C@@H](C)[C@H](OC(C)=O)[C@@H]1C ; read by: luminescence ; measure: MIC90 ; value: 1190 µg/mL
CC(=O)N(CCN(C(C)=O)C(C)C)C(C)C ; tested at: 250 µg/mL ; measure: inhibition ; strain or isolate: ATCC 607 ; value: 0%
COc1c(N2CC[C@H](N)C2)c(F)cc2c(=O)[nH]c(=O)n(C3CC3)c12 ; measure: MIC99 ; strain or isolate: G89C mutant ; value: 200 µg/mL
CCCCCCCCC#CCCCCCCC#CC(=O)O ; measure: MIC99 ; strain or isolate: mc22389 ; value: >200 µM
Cc1ccc(NC(=O)c2cc(Cl)ccc2OC(=O)[C@@H](Cc2cc3ccccc3[nH]2)NC(=O)OCc2ccccc2)cc1 ; read by: broth dilution ; measure: MIC100 ; strain or isolate: ATCC 700084 ; value: 110 µM
COc1c(N2CC[C@@H](CN)C2)c(F)cc2c(=O)c(C(=O)O)cn(C3CC3)c12 ; measure: MIC99 ; strain or isolate: D95Y mutant ; value: 0.125 µg/mL
Cc1onc(-c2c(F)cccc2F)c1C(=O)N1CCN(c2c(F)cc3c(=O)c(C(=O)O)cn4c3c2OCC4C)CC1 ; read by: agar ; measure: MIC99 ; value: 43.98 µM
CCCC(CCC)NCCNC(CCC)CCC ; tested at: 60 µg/mL ; measure: inhibition ; strain or isolate: ATCC 607 ; value: 100%
CCC1CNC[C@@H](CC)C12N=c1c(c3c4c5c(C)c(O)c3c(O)c1=NC(=O)/C(C)=C\C=C\[C@H](C)[C@H](O)[C@@H](C)[C@@H](O)[C@@H](C)[C@H](OC(C)=O)[C@H](C)[C@@H](OC)/C=C/O[C@@](C)(O5)C4=O)N2 ; read by: luminescence ; measure: MIC90 ; value: 330 µg/mL
Cc1[nH]c(-c2ccc(-c3ccc(Cl)c(OC(F)(F)F)c3)o2)nc1-c1ccc(Cl)cc1 ; read by: broth dilution / turbidity ; measure: MIC100 ; value: 20–50 µg/mL
Cc1ccc([N+](=O)[O-])cc1NC(=O)Nc1ccc(Cl)c(Cl)c1 ; read by: broth dilution / turbidity ; measure: MIC90 ; value: 0.5 µg/mL
CCc1nc(NC(C(=O)O)C(C)C)c2cc(C)sc2n1 ; read by: resazurin ; measure: EC50 ; strain or isolate: mc2155 ; value: 52 µM
C#CCCCCCCCCCCCCC#CC(=O)O ; measure: MIC99 ; strain or isolate: mc22389 ; value: 47.7 µM
CNC(=O)[C@@H](C)[C@H]1C(=O)\C(=C(O)/C=C/C(C)=C/[C@@H](C)[C@@H]2O[C@]3(C)O[C@@H](CC[C@]34CO4)[C@@H]2C)C(=O)N1[C@@H]1CC[C@H](O)[C@H](C)O1 ; read by: resazurin ; measure: MIC90 ; strain or isolate: SMR5 ; value: 50 µg/mL
CC(C)N[C@@H]1CCCC[C@H]1NC(C)C ; measure: EC50 ; strain or isolate: ATCC 607 ; value: >250 µg/mL
CCc1cc(C(N)=S)ccn1 ; measure: MIC ; strain or isolate: MC^2 832 ; value: >80 µg/mL
CCCCCCCCCCCCCCCC#CC(=O)OCCO ; measure: MIC99 ; strain or isolate: mc2651 ; value: 2.3 µM
Cc1[nH]c(-c2ccc(-c3cccc(OC(F)(F)F)c3)o2)nc1-c1ccccc1 ; read by: broth dilution / turbidity ; measure: MIC100 ; value: 11–20 µg/mL
CCc1nc(NCCCc2ccccc2)c2cc(C)sc2n1 ; read by: resazurin ; measure: EC50 ; strain or isolate: mc2155 ; changes: cydA + cdyAB ; value: 0.83 µM
CCC(C)(C)NCCNC(C)(C)CC ; tested at: 250 µg/mL ; measure: inhibition ; strain or isolate: ATCC 607 ; value: 0%
CCC1CN(c2c(F)cc3c(=O)n(N)c(=O)n(C4CC4)c3c2OC)CCN1 ; measure: MIC99 ; strain or isolate: G89C mutant ; value: 10 µg/mL
C[C@H]1COc2c(N3CCN(C)C(c4ccccc4)C3)c(F)cc3c(=O)c(C(=O)O)cn1c23 ; read by: agar ; measure: MIC99 ; value: 114 µM
CO[C@H]1/C=C/O[C@@]2(C)Oc3c(C)c(O)c4c(O)c(c5c(c4c3C2=O)NC2(CC3CCC(C2)N3)N=5)=NC(=O)/C(C)=C\C=C\[C@H](C)[C@H](O)[C@@H](C)[C@@H](O)[C@@H](C)[C@H](OC(C)=O)[C@@H]1C ; read by: luminescence ; measure: MIC90 ; value: 320 µg/mL
C=C1C2CCC(CO)[C@@]23CC[C@H](C3)C1(C)C ; read by: agar diffusion ; measure: MIC ; strain or isolate: ATC 700084 ; value: 25 µg/mL
FC(F)(F)Oc1ccccc1-c1ccc(-c2nc(-c3ccccc3)c(Cl)[nH]2)o1 ; read by: broth dilution / turbidity ; measure: MIC100 ; value: 20–50 µg/mL
CO[C@H]1/C=C/O[C@@]2(C)Oc3c(C)c(O)c4c(O)c(c5c(c4c3C2=O)NC2(N=5)C3CC4C[C@H]2CN(C4)C3)=NC(=O)/C(C)=C\C=C\[C@H](C)[C@H](O)[C@@H](C)[C@@H](O)[C@@H](C)[C@H](OC(C)=O)[C@@H]1C ; read by: luminescence ; measure: MIC90 ; value: 650 µg/mL

Repeating the first 4 entries:

smiles | tested at | read by | measure | strain or isolate | changes | value
CCSCCCCCCCCCCCCC#CC(=O)O | - | - | MIC99 | mc22389 | - | 83.8 µM
CCCCNC(=O)c1cc([N+](=O)[O-])cc([N+](=O)[O-])c1 | - | visual reading | MBC | mc2155 | - | 4 µg/mL
C[C@H](NCCN[C@H](C)c1ccccc1)c1ccccc1 | 250 µg/mL | - | inhibition | ATCC 607 | - | 100%
Cc1[nH]c(-c2ccc(-c3ccccc3F)s2)nc1-c1ccccc1 | - | broth dilution / turbidity | MIC100 | - | - | 11–20 µg/mL